Assay results taken from paper PMC6753678, “Fueling Open Innovation for Malaria Transmission-Blocking Drugs: Hundreds of Molecules Targeting Early Parasite Mosquito Stages” (Frontiers in Microbiology, 2019).

Test system: P. falciparum late stage (stages IV-V) gametocytes
Test: P. falciparum late stage gametocyte ATP depletion assay (Pf GC-ATP)
[1] = unified cytotox / Pf GC-ATP IC50, red: <10-fold selectivity, green: >10-fold
[2] = unified cytotox / IC50, <10-fold red, >10-fold green

| Structure (SMILES) | Assay tox ratio Pf GC-ATP [1] | also measured |
| --- | --- | --- |
| Cc1ccc(-n2c(C)nc3c(Nc4ccc(-c5ccncc5)cc4)ncnc32)c(C)c1 [TCMDC-136289] | 46.88 |  |
| CS(=O)(=O)c1cccc(-c2cnc3[nH]cc(-c4cccc(CCN)c4)c3c2)c1 [TCMDC-136307] | 53.19 |  |
| C[C@H]1CN(Cc2cccc(-c3cc(CNC(=O)c4cccc(CC5CCN(C)CC5)c4)ccc3F)c2)CCN1C [TCMDC-136349] | 8.20 |  |
| COc1cc(Br)c(S(=O)(=O)n2cc(CN3CCC(N)CC3)c3cc(Cl)ccc32)cc1OC.O=C(O)C(F)(F)F [TCMDC-136384] | 2.77 |  |
| CN(C)Cc1ccc(-c2cccc(Nc3nccc(NCC(O)c4ccccc4)n3)c2)cc1 (stereo not drawn) [TCMDC-136467] | 6.52 |  |
| CCn1ncc2c(NC3CCOCC3)c(CNC(=O)c3ccnn3C)c(C)nc21 [TCMDC-136560] | 15.29 |  |
| Fc1ccc(N(c2nc(-c3cc(F)cc(C(F)(F)F)c3)cs2)C2CCNCC2)cc1.O=C(O)C(F)(F)F [TCMDC-136656] | 2.02 |  |
| CN(C)CCNC(=O)c1ccc(-c2cnc3ccc(NCc4ccc(Cl)c(Cl)c4)nn23)cc1 [TCMDC-136678] | 49.98 |  |
| CCNCc1cccc(-c2ccc3ccnc(N)c3c2)c1 [TCMDC-136869] | 7.53 |  |
| CS(=O)(=O)O.FC(F)(F)COc1c(CCNCCCCNCCc2ccc3ccccc3c2OCC(F)(F)F)ccc2ccccc12 [TCMDC-137169] | 28.00 |  |
| CCN(CC)CCOc1ccc(C(O)(C#CC(O)(c2ccccc2)c2ccc(OCCN(CC)CC)cc2)c2ccccc2)cc1 (stereo not drawn) [TCMDC-137197] | 5.34 |  |
| CCN(CC)CCOc1ccc(C(O)(C#CC(O)(c2ccc(C)cc2)c2ccc(OCCN(CC)CC)cc2)c2ccc(C)cc2)cc1 (stereo not drawn) [TCMDC-137198] | 11.57 |  |
| CCN(CC)CCOc1ccc(C(O)(C#CC(O)(c2ccc(OCCN(CC)CC)cc2)c2ccc([N+](=O)[O-])cc2)c2ccc([N+](=O)[O-])cc2)cc1 (stereo not drawn) [TCMDC-137201] | 27.64 |  |
| CCc1cc(COc2ccc(CNCCC(C)C)cc2I)c(OCc2ccccc2)c(COc2ccc(CNCCC(C)C)cc2I)c1.Cl [TCMDC-137255] | 5.71 |  |
| Cl.Ic1cc(CNC2CCCCC2)ccc1OCc1cccc(COc2ccc(CNC3CCCCC3)cc2I)c1 [TCMDC-137261] | 75.00 |  |
| CC(C)CCNCc1ccc(OCc2cccc(COc3ccc(CNCCC(C)C)cc3I)c2)c(I)c1.Cl [TCMDC-137274] | 14.32 |  |
| Cl.N=C(NCCCc1ccccc1)c1cccc(C(=N)NCCCc2ccccc2)n1 [TCMDC-137453] | 40.85 |  |
| COc1cc(CCNC(=N)/C=C/c2ccc(Cl)cc2)ccc1Cl.Cl [TCMDC-137457] | 50.00 |  |
| CCCCN(CCCC)CCCCNc1c2ccccc2nc2ccccc12.Cl [TCMDC-137461] | 34.55 |  |
| COc1ccc2nc3cc(Cl)ccc3c(NCCN3CCN(C)CC3)c2c1 [TCMDC-137476] | 10.30 |  |
| CN1CCN(CCCCNc2c3ccccc3nc3ccccc23)CC1 [TCMDC-137479] | 2.57 |  |
| Br.C=CCNC(CCCCC)c1ccc(OCCOc2ccc(C(CCCCC)NCC=C)cc2)cc1 (stereo not drawn) [TCMDC-137483] | 6.41 |  |
| COc1ccc2nc3cc(Cl)ccc3c(NCCCCCCNc3c4ccc(Cl)cc4nc4ccc(OC)cc34)c2c1.Cl.Cl.Cl.Cl [TCMDC-137503] | 500.00 |  |

| Structure (SMILES) | Assay tox ratio Pf GC-ATP [1] | also measured |
| --- | --- | --- |
| CCCCN1CCN(CCCCNc2c3ccccc3nc3ccccc23)CC1.Cl [TCMDC-137569] | 10.66 |  |
| COc1ccc2nc3cc(Cl)ccc3c(NCCCCN3CCNCC3)c2c1.Cl [TCMDC-137578] | 7.58 |  |
| Br.CCCCC(NCC)c1ccc(OCCOc2ccc(C(CCCC)NCC)cc2)cc1 (stereo not drawn) [TCMDC-137612] | 14.41 |  |
| CC(C)CCNC(=N)Nc1ccc(OCCCCCOc2ccc(NC(=N)NCCC(C)C)cc2)cc1 [TCMDC-137614] | 49.34 |  |
| CC(C)CCNC(=N)Nc1ccc(OCCCOc2ccc(NC(=N)NCCC(C)C)cc2)cc1 [TCMDC-137615] | 86.21 |  |
| CCCCCCNC(=N)c1ccc(OCCCCCOc2ccc(C(=N)NCCCCCC)cc2)cc1.Cl [TCMDC-137619] | 17.42 |  |
| CCCCCCC(N)c1ccc(OCCCOc2ccc(C(N)CCCCCC)cc2)cc1.Cl (stereo not drawn) [TCMDC-137621] | 35.62 |  |
| CCCCCOc1ccc(C(=NC)N(CCCCC)CCCCC)c2ccccc12.I [TCMDC-137703] | 7.12 |  |
| CCOc1c(CCNCCCCNCCc2ccc3ccccc3c2OCC)ccc2ccccc12.CS(=O)(=O)O [TCMDC-137759] | 144.23 |  |
| CCOc1ccc2ccccc2c1CNCCCCCCNCc1c(OCC)ccc2ccccc12.CS(=O)(=O)O [TCMDC-137791] | 2.50 |  |
| Br.c1cc(C2=NC3CCCCC3N2)ccc1OCCCCCOc1ccc(C2=NC3CCCCC3N2)cc1 (stereo not drawn) [TCMDC-137802] | 13.36 |  |
| COc1ccc2c(c1CNCCCCCCNCc1c(OC)ccc3c1CCCC3)CCCC2 [TCMDC-137817] | 9.12 |  |
| COc1cc2ccccc2c(OC)c1CNCCCCCCNCc1c(OC)cc2ccccc2c1OC.CS(=O)(=O)O [TCMDC-137843] | 13.32 |  |
| CC(=NNC(=S)NCCc1ccccn1)c1ccccn1 [TCMDC-137895] | 16.72 |  |
| Cl.N=C(N)NN=Cc1c2ccccc2c(Cl)c2cc(Cl)ccc12 [TCMDC-137903] | 3.20 |  |
| CN(CCCNCc1cccc2ccccc12)CCCNCc1cccc2ccccc12.Cl [TCMDC-137905] | 24.87 |  |
| COCCCNC(=S)NN=C(C)c1ccccn1 [TCMDC-137907] | 106.25 |  |
| Cl.c1ccc2c(CNCCCN3CCN(CCCNCc4c5ccccc5cc5ccccc45)CC3)c3ccccc3cc2c1 [TCMDC-137909] | 59.81 |  |
| Cl.c1ccc2c(NCCCCCCNc3ccnc4ccccc34)ccnc2c1 [TCMDC-137913] | 17.02 |  |
| CCOCn1c(-c2ccccc2)cc2c3c(N)nc(N)nc3ccc21 [TCMDC-137979] |  | Assay tox ratio Pf GC-ATP [2]: 4.01 |
| Cl.c1ccc(CN2CCN(CCCCNc3c4ccccc4nc4ccccc34)CC2)cc1 [TCMDC-138009] | 12.48 |  |
| COc1ccc2nc3cc(Cl)ccc3c(NCCCCNc3c4ccc(Cl)cc4nc4ccc(OC)cc34)c2c1 [TCMDC-138218] | 72.35 |  |
| Cc1nc(-c2cccc(Nc3ccnc4cc(-c5nccs5)ccc34)c2)no1.Cl [TCMDC-138334] | 25.40 |  |

| Structure (SMILES) | Assay tox ratio Pf GC-ATP [1] | also measured |
| --- | --- | --- |
| Cc1cc(NCCc2ccccc2)nc(NC(=N)Nc2ccccc2Cl)n1 [TCMDC-138370] | 2.79 |  |
| CS(=O)(=O)CCNCc1nc(-c2ccc3c(=O)[nH]cnc3c2)cs1 [TCMDC-138539] | 1.57 |  |
| C=CC(C)C1OC(=O)c2cc(OC)cc(OC)c21 (stereo not drawn) [TCMDC-138676] |  | Assay tox ratio Pf GC-ATP [2]: 2.52 |
| COc1cc2nc(NCC3CCN(c4nc(N)c5cc(OC)c(OC)cc5n4)CC3)nc(N)c2cc1OC [TCMDC-138723] | 17.61 |  |
| Cl.O=C(NCCCCN1CCC(c2ccc3c(c2OCCO)CCCC3)CC1)c1ccc2oc(-c3ccc(C(F)(F)F)cc3)cc2c1 [TCMDC-138771] | 10.46 |  |
| C=C(C)Cn1cc(C2CCN(CCN3CCC(CNC(=O)c4ccc(-c5ccc(C#N)cc5)cc4)CC3)CC2)c2ccccc21 [TCMDC-138854] | 1.26 |  |
| O=C(NCCCCN1CCC(c2c[nH]c3ccc(-c4ccccc4)cc23)CC1)c1ccc(-c2ccccc2)cc1.O=C(O)C(=O)O [TCMDC-139064] | 5.14 |  |
| CCN(CC)Cc1cc(Nc2c3ccc(Cl)cc3nc3cccc(OC)c23)ccc1O.Cl [TCMDC-139222] | 25.13 |  |
| CCCCCCCN1CC[C@@H](CCCc2ccnc3ccc(OC)cc23)[C@@H](CCN)C1.O=C(O)C(=O)O [TCMDC-139278] | 11.18 |  |
| COc1ccc(COc2cc(NCCCN)nc3ccccc23)cc1 [TCMDC-139286] | 24.96 |  |
| N=C(N)Nc1nc(-c2ccc(NC(=O)Nc3cccc(-c4csc(NC(=N)N)n4)c3)cc2)cs1 [TCMDC-139559] | 17.48 |  |
| O=C(/C=C/c1ccc(Cl)c(Cl)c1)NCCCCCN1CCCC(CNS(=O)(=O)c2cccc(C(F)(F)F)c2)C1 (stereo not drawn) [TCMDC-139597] | 0.44 |  |
| CC(C)CCNC(=O)c1cnc2c(O)cccc2c1Nc1cccc(NC(=O)c2ccc(F)cc2)c1.O=C(O)C(F)(F)F [TCMDC-139606] | 4.15 |  |
| CC(Cc1ccc(CNC(=O)NCc2ccc(CC(C)NCCc3cccc(Cl)c3)cc2)cc1)NCCc1cccc(Cl)c1 (stereo not drawn) [TCMDC-139648] |  | Assay tox ratio Pf GC-ATP (unified cytotox over Pf GC-ATP IC50, red: <10-fold selectivity, green: >10-fold): 6.85 |
| O=C(Nc1ccc(Oc2ccccc2)cc1)N(CCN1CCCC1)Cc1ccc(-c2ccc(CN3CCNCC3)cc2)cc1.O=C(O)C(F)(F)F [TCMDC-139652] | 6.98 |  |
| COc1ccc(CCNC(C)Cc2ccc(C(=O)Nc3ccc(CC(C)NCCc4cccc(Cl)c4)cc3)cc2)cc1 (stereo not drawn) [TCMDC-139750] | 3.87 |  |
| CC(CCCC(=O)Nc1ccc(CC(C)NCCc2cccc(Cl)c2)cc1)NCCc1cccc(Cl)c1 (stereo not drawn) [TCMDC-139798] | 5.52 |  |
| CC(CCCCC(=O)Nc1ccc(CC(C)NCCc2cccc(Cl)c2)cc1)NCCc1cccc(Cl)c1 (stereo not drawn) [TCMDC-139799] | 3.98 |  |
| CCCCCCCN1CC[C@@H](CCCc2ccnc3ccc(OCC4CCCNC4)cc23)[C@@H](CC)C1.Cl (stereo partly drawn) [TCMDC-139816] | 13.93 |  |
| CCCCCCCN1CC[C@@H](CCCc2ccnc3ccc(OCCC4CCNCC4)cc23)[C@@H](CC)C1.Cl [TCMDC-139819] | 10.84 |  |
| CCCCCCCN1CC[C@@H](CCCc2ccnc3ccc(OCCCCN/C(N)=N/O)cc23)[C@@H](CC)C1.O=C(O)C(=O)O [TCMDC-139839] | 36.34 |  |
| CC(Cc1ccc(COc2ccc(CC(CO)NCCc3cccc(Cl)c3)cc2)cc1)NCCc1cccc(Cl)c1.Cl (stereo not drawn) [TCMDC-139844] | 2.53 |  |
| Cl.O=C(/C=C/c1ccc(Cl)c(Cl)c1)N1CCC(CCN2CCC(c3c[nH]c4cnccc34)CC2)CC1 [TCMDC-140136] | 36.05 |  |
